Experimental findings from US20130244896A1, “IN VITRO METHOD FOR PREDICTING WHETHER A COMPOUND IS GENOTOXIC IN VIVO” (priority 2012, published 2013) are described below.

The subject of this series is microRNAs 885-3p, 888*, 98, 1262, 1229, 30c-1*, 891b, 302b, 1246, and 502-3p.

As to Aflatoxin B1, the “Aggregate result, correct” value is listed as 17/30.
